Experimental findings from PMC5640672, “Molecular mechanism of synergy between the antimicrobial peptides PGLa and magainin 2” (Scientific Reports, 2017) are described below.

This data set can be described thus: Solid-state 15N-NMR of peptide orientation in oriented lipid bilayers. The following applies: for 15N-NMR chemical shift of the 15N-Ala10-labeled peptide + MAG2-WT: 1:1 mixture with unlabeled MAG2-WT; for 15N-NMR chemical shift of the 15N-Ala10-labeled peptide alone: P/L 1:50, 35 °C, about 90 ppm = surface, about 130 ppm = tilted, about 200 ppm = inserted.
The mark [1] stands for this setting: oriented DMPC/DMPG (3:1) bilayers, P/L 1:50 each, 35 °C, signal above 175 ppm = synergy.
The mark [2] stands for this setting: oriented DMPC/DMPG (3:1) bilayers.

Values joined by “and” are separate entries in the source; they are usually repeats but may differ in a detail not shown here. Equal entries are not always repeated.

As for “KIAGKIAKIAGKIAKVALKAL-NH2 [PtM-a1, PGLa to MSI-103 mutant, segment A replaced]”, under setting [1], the “15N-NMR chemical shift of the 15N-Ala10-labeled peptide + MAG2-WT” value turned out to be 165 ppm. For the same substance, the “15N-NMR chemical shift of the 15N-Ala10-labeled peptide alone” value under setting [2] stood at 152 ppm.
In the case of “GMASKAIAG A IKGAKVALKAL-NH2 [PGLa-GS2, PGLa glycine-shift mutant, GxxxG on opposite helix face]”, the “15N-NMR chemical shift of the 15N-Ala10-labeled peptide + MAG2-WT” value under setting [1] is listed as 80 ppm. Also, the “15N-NMR peak of peptides that do not engage in synergy” value (DMPC/DMPG, P/L 1:50, presence of MAG2 not given) came to 80 ppm. For the same substance, the “15N-NMR chemical shift of the 15N-Ala10-labeled peptide alone” value under setting [2] is on record as 72 ppm.
“GMASKIGAIAGKIAKVALKAL-NH2 (C-terminal amide; 15N-Ala10) [PtM-A6I, PGLa single mutant A6I]”: the “15N-NMR chemical shift of the 15N-Ala10-labeled peptide + MAG2-WT” value under setting [1] was 194 ppm. Moreover, the “15N-NMR chemical shift of the 15N-Ala10-labeled peptide alone” value under setting [2] amounted to 135 ppm.
Taken in the same sequence, the figures for “KIAGKAGAIAGKIAKIALKIA-NH2 (C-terminal amide; 15N-Ala10) [MtP-a4, MSI-103 mutant with MtP-A3 mutations plus G18L]” were 188 ppm and 163 ppm.
Taken in the same sequence, the figures for “KIAGKIAAIAGKIAKIAGKIA-NH2 [MtP-K8A, MSI-103 to PGLa single mutant K8A]” were 96 ppm and 106 ppm.
Turning to “GMASKAGAIAGKIAKVALEAL-NH2 [PGLa-K19E-^15N-A10] (C-terminal amide; 15N-Ala10) [PGLa charge mutant K19E labeled with 15N at Ala10]”, the “15N-NMR chemical shift of the 15N-Ala10-labeled peptide alone” value under setting [2] was found to be 165 ppm.
For the substance “GMASKAGAIAGKIAKVALKAL-NH2 [PGLa-WT, PGLa wild type antimicrobial peptide from Xenopus laevis skin, 15N-labeled at Ala10, reference compound]”, the “15N-NMR chemical shift of the 15N-Ala10-labeled peptide + MAG2-WT” value under setting [1] was “around 200 ppm”. Further, the “15N-NMR chemical shift of the 15N-Ala10-labeled peptide alone” value runs as follows: under setting [2], “around 130 ppm”; (oriented DMPC/DMPG (3:1) bilayers, listed as PGLa-^15N-A10) 133 ppm.
With “GMASKAGAIA IKIAKVALKAL-NH2 [PGLa-G11I, PGLa glycine mutant G11I]”, the “15N-NMR chemical shift of the 15N-Ala10-labeled peptide + MAG2-WT” value under setting [1] was 154 ppm. Moreover, under setting [2], the “15N-NMR chemical shift of the 15N-Ala10-labeled peptide alone” value was 143 ppm.
On the same counts, the results for “KIAGKIAKIAGKIAKIAGKIA-NH2 [MSI-103, designer-made AMP ([KIAGKIA]3-NH2) derived from PGLa, reference compound]” are 128 ppm and 144 ppm.
Take “KIAGKIGKIAGKIAKIAGKIA-NH2 [MtP-A7G, MSI-103 to PGLa single mutant A7G]”: the “15N-NMR chemical shift of the 15N-Ala10-labeled peptide + MAG2-WT” value under setting [1] stood at 95 ppm. For the same substance, the “15N-NMR chemical shift of the 15N-Ala10-labeled peptide alone” value under setting [2] amounted to 105 ppm.
For the substance “GMASKAAAIAGKIAKVALKAL-NH2 (C-terminal amide; 15N-labeled Ala10) [PtM-G7A, PGLa single mutant G7A]”, the “15N-NMR chemical shift of the 15N-Ala10-labeled peptide + MAG2-WT” value under setting [1] worked out at 138 ppm. Further, the “15N-NMR chemical shift of the 15N-Ala10-labeled peptide alone” value under setting [2] is on record as 134 ppm.
On the same counts, the results for “GMASKAGAIAGKIAKIAGKIA-NH2 [PtM-c1, PGLa to MSI-103 mutant, segment C replaced]” are 215 ppm and 119 ppm.
On the same counts, the results for “GMASKAAAIAGKIGKVALKAL-NH2 (C-terminal amide; 15N-Ala10) [PGLa-GS1, PGLa glycine-shift mutant with GxxG motif]” are 118 ppm and 122 ppm.
On the same counts, the results for “GMASKIAKIAGKIAKVALKAL-NH2 [PtM-a3, PGLa to MSI-103 mutant, three amino acids converted]” are 160 ppm and 159 ppm.
As to “KIAGKAAKIAGKIAKIAGKIA-NH2 [MtP-I6A, MSI-103 to PGLa single mutant I6A]”, under setting [1], the “15N-NMR chemical shift of the 15N-Ala10-labeled peptide + MAG2-WT” value came out at 124 ppm. Further, the “15N-NMR chemical shift of the 15N-Ala10-labeled peptide alone” value under setting [2] amounted to 121 ppm.
Taken in the same sequence, the figures for “KIAGKAGAIAGKIAKVALKAL-NH2 [PtM-a2, PGLa to MSI-103 mutant, three amino acids converted]” were 191 ppm and 167 ppm.
As for “KIAGKIGKIAGKIAKIALKIA-NH2 (C-terminal amide; 15N-Ala10) [MtP-A7G-G18L, MSI-103 double mutant A7G, G18L]”, the “15N-NMR chemical shift of the 15N-Ala10-labeled peptide + MAG2-WT” value under setting [1] is given as 190 ppm. Moreover, the “15N-NMR chemical shift of the 15N-Ala10-labeled peptide alone” value under setting [2] turned out to be 159 ppm.
Taken in the same sequence, the figures for “GMASKAGKIAGKIAKVALKAL-NH2 (C-terminal amide; 15N-labeled Ala10) [PtM-A8K, PGLa single mutant A8K]” were 193 ppm and 143 ppm.
For “GMASKAGAIAGKIAKVALEAL-NH2 [PGLa-K19E] (C-terminal amide) [PGLa charge mutant K19E]”, the “15N-NMR chemical shift of the 15N-Ala10-labeled peptide alone” value under setting [2] is recorded as “around 160 ppm”.
For the substance “GIGKFLHSAKKFGKAFVGKIMNS-OH (C-terminal free acid) [MAG2-E19K, MAG2 charge mutant E19K]”, under setting [1], the “15N-NMR chemical shift of PGLa-15N-A10 in 1:1 mixture with the listed MAG2 peptide” value was ~200 ppm and 191 ppm; the “15N-NMR chemical shift of PGLa-K19E-15N-A10 in 1:1 mixture with the listed MAG2 peptide” value is 200 ppm.
“KIAGKAGAIAGKIAKIAGKIA-NH2 [MtP-a3, MSI-103 triple mutant I6A, A7G, K8A]”: the “15N-NMR chemical shift of the 15N-Ala10-labeled peptide + MAG2-WT” value under setting [1] came out at 206 ppm. Also, the “15N-NMR chemical shift of the 15N-Ala10-labeled peptide alone” value under setting [2] came out at 125 ppm.
